Measurements from the supplement of paper PMC9931576.
Human monoclonal antibodies against the spike receptor-binding domain (heavy:light variable regions). IC50 against pseudoviruses bearing the spike of naturally observed variants; lower = stronger; >10 µg/ml means not reached at the top dose. No active / inactive call. The stated detection limit is 0.0005 µg/ml; values near or below 0.001 µg/ml lie at the floor of the assay.

Columns and labels:
Assay in all cases: pseudovirus neutralization IC50; higher = weaker neutralization
[1] = molecular target: SARS-CoV-2 Omicron BA.1 spike pseudovirus
Experimental: (§1)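 Single-round VSV luciferase pseudovirus mixed with antibody dilutions for 1 h and put on Huh-7 cells for about a day; IC50 from the dose curve.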

[2] = molecular target: SARS-CoV-2 Omicron BA.2 spike pseudovirus
Experimental: as §1

[3] = molecular target: SARS-CoV-2 Omicron BA.2.75 spike pseudovirus
Experimental: as §1

[4] = molecular target: SARS-CoV-2 Omicron BA.5 spike pseudovirus
Experimental: as §1

[5] = molecular target: SARS-CoV-2 Omicron BQ.1.1 spike pseudovirus
Experimental: as §1

[6] = molecular target: SARS-CoV-2 Omicron XBB spike pseudovirus
Experimental: as §1

[7] = molecular target: SARS-CoV-2 early D614G spike pseudovirus
Experimental: as §1

B1: BD56-1331 (protein)
chain 1: EVQLLESGGGLVQPGGSLRLSCGASGFAFGSYAMSWVRQAPEKGLEWVSAINDSGDGKFYADSVKGRFTISRDNSKNTLYLQMNSLRAEDTAVYYCAKHEDFGDYVDYFDPWGQGTLITVSS
chain 2: DIQMTQSPSSLSASVGDRVTITCRASQSIGRYLSWYQQKAGKAPNLLIYGAASLQIGVPSRFSGSGSGTDFTLTITSLQPEDFATYYCQQSYGTPPWTFGQGTKVEIK
[1]
  pseudovirus neutralization IC50: > 10 µg/mL
[2]
  pseudovirus neutralization IC50: 1.14 µg/mL
[3]
  pseudovirus neutralization IC50: 1.96 µg/mL
[4]
  pseudovirus neutralization IC50: 1.44 µg/mL
[5]
  pseudovirus neutralization IC50: 1.96 µg/mL
[6]
  pseudovirus neutralization IC50: 0.82 µg/mL
[7]
  pseudovirus neutralization IC50: 1.75 µg/mL

B2: BD56-1334 (protein)
chain 1: QVQLVQSGAEVKKPGASVKLSCKTSGYTFTTYHIHWVRQAPGQGLEWMGIINPSGGSRRYAQKFQGRVSMTGDTSASTVYMELSSLRSEDTAIYYCARELVVPAAGYMDVWGKGTTLTVSS
chain 2: SYVLTQPPSVSVAPGKTARVTCGGNNIGSTSVHWYQQKPGQAPVLVVYDDSDRPSGIPERFSGSNSGNTATLTISRVEAGDEADYYCQVFDGSSDHFYVFGSGTKVTVL
[1]
  pseudovirus neutralization IC50: > 10 µg/mL
[2]
  pseudovirus neutralization IC50: > 10 µg/mL
[3]
  pseudovirus neutralization IC50: > 10 µg/mL
[4]
  pseudovirus neutralization IC50: > 10 µg/mL
[5]
  pseudovirus neutralization IC50: > 10 µg/mL
[6]
  pseudovirus neutralization IC50: > 10 µg/mL
[7]
  pseudovirus neutralization IC50: > 10 µg/mL

B3: BD56-1335 (protein)
chain 1: QVQLVQSGAEVKKPGASVKVSCKASGYTFTSYYIHWVRQAPGQGLEWMGMINPSGGTTRSAQQFQGRVTMTRDTSTSTVYMELSSLRSDDTAVYFCAREVVVPAAGYMDVWGKGTTVTVSS
chain 2: SYVLTQPPSVSVAPGKTARITCGGDNIGSKSVHWYQQRPGQAPVLVVYHDSDRPSGIPERFSGSNSGNTATLTISGVEAGDEADYYCQVWDSISGHFYVFGTGTTVTVL
[1]
  pseudovirus neutralization IC50: > 10 µg/mL
[2]
  pseudovirus neutralization IC50: > 10 µg/mL
[3]
  pseudovirus neutralization IC50: > 10 µg/mL
[4]
  pseudovirus neutralization IC50: > 10 µg/mL
[5]
  pseudovirus neutralization IC50: > 10 µg/mL
[6]
  pseudovirus neutralization IC50: > 10 µg/mL
[7]
  pseudovirus neutralization IC50: > 10 µg/mL

B4: BD56-1344 (protein)
chain 1: QLQLQESGPGLVKPSETLSLTCSVSGGSISSSDYYWGWIRQPPGKGLEWIGNIFYSGTTYYNPSLKSRVTISVDTSENHFSLRLTSVTAADTAFYYCARFLRMATVLGGAYYFDYWGQGTLVTVSS
chain 2: QSALTQPPSASGSPGQSVTISCTGTSSDVGSYNYVSWYQQYPGKAPKLMIYEVTKRPSGVPDRISGSKSGNTASLTVSGLQAEDEADYYCSSYVGSNTLFGGGTKLTVL
[1]
  pseudovirus neutralization IC50: > 10 µg/mL
[2]
  pseudovirus neutralization IC50: > 10 µg/mL
[3]
  pseudovirus neutralization IC50: > 10 µg/mL
[4]
  pseudovirus neutralization IC50: > 10 µg/mL
[5]
  pseudovirus neutralization IC50: > 10 µg/mL
[6]
  pseudovirus neutralization IC50: > 10 µg/mL
[7]
  pseudovirus neutralization IC50: > 10 µg/mL

B5: BD56-1354 (protein)
chain 1: EVQLVESGGGLVQPGGSLRLSCAASGIIVSRNYMSWVRQAPGKGLEWVSVIYSGGSTYYADSVKGRFIISRDNSKNTLNLQMNSLRAEDTAVYYCARDSRINGMDVWGQGTTVTVSS
chain 2: DIQMTQSPSSLSASVGDRVTITCQASQDINNYLNWFQQKPGKAPKLLIYDASSLETGVPSRFSGSGSGTDFTFTISSLQPEDIATYYCQQYDNLPPWTFGQGTKVEIK
[1]
  pseudovirus neutralization IC50: 0.00565 µg/mL
[2]
  pseudovirus neutralization IC50: 0.000691 µg/mL
[3]
  pseudovirus neutralization IC50: 0.0513 µg/mL
[4]
  pseudovirus neutralization IC50: 0.00202 µg/mL
[5]
  pseudovirus neutralization IC50: 0.452 µg/mL
[6]
  pseudovirus neutralization IC50: 0.628 µg/mL
[7]
  pseudovirus neutralization IC50: 6.96 µg/mL

B6: BD56-1390 (protein)
chain 1: EVQLVESGGGLIQPGGSLRLSCEASEFIVSSNYMSWVRQAPGKGLEWVSIIYSGGTTYYADSVKGRFTISRDNAKNTLYLQMSSLRVEDTALYYCARVLPMGTFDYWGQGTLVTVSS
chain 2: DIQMTQSPSSLSASVGDRVTITCQASQDVNIYLNWYQQKPGKAPKLLISDASNLETGVPSRFSGSGSGTGFTFTISSLQPEDIATYYCQQYDNVPLTFGGGTKVEIK
[1]
  pseudovirus neutralization IC50: 0.00245 µg/mL
[2]
  pseudovirus neutralization IC50: 0.00168 µg/mL
[3]
  pseudovirus neutralization IC50: 1.39 µg/mL
[4]
  pseudovirus neutralization IC50: 0.0891 µg/mL
[5]
  pseudovirus neutralization IC50: > 10 µg/mL
[6]
  pseudovirus neutralization IC50: > 10 µg/mL
[7]
  pseudovirus neutralization IC50: 1.31 µg/mL

B7: BD56-1392 (protein)
chain 1: QVQLVQSGAEVKKPGASVKVSCKASGYTFSDYYMHWVRQAPGQGLEWMGIINPTAGSTSYAQKFQGRVTMTTDTSTSTAYLELNSLRSEDTAIYYCARDLVLVPAADSLDHWGQGTLVTVSS
chain 2: EIVLTQSPATLSLSPGERATLSCRASQSISTYLAWYQQKPGQAPRLLIYDASNRATGIPARFSGSGSGTDFTLTISSLEPEDFALYYCQQRSGWPRLFTFGPGTKVDMK
[1]
  pseudovirus neutralization IC50: > 10 µg/mL
[2]
  pseudovirus neutralization IC50: > 10 µg/mL
[3]
  pseudovirus neutralization IC50: > 10 µg/mL
[4]
  pseudovirus neutralization IC50: > 10 µg/mL
[5]
  pseudovirus neutralization IC50: > 10 µg/mL
[6]
  pseudovirus neutralization IC50: > 10 µg/mL
[7]
  pseudovirus neutralization IC50: > 10 µg/mL

B8: BD56-1402 (protein)
chain 1: EVQLVQSGAEVTKPGESLKISCQGSGYSFSTYWIHWVRQMPGKGLEWMGIIYPYDSDTRYSPSFQGQVTISADKSINTAYLQWSSLKASDTATYYCARSYNAYYYIMDVWGQGTTVTVSS
chain 2: QSVLTQPPSASGTPGQRVTISCSGSSSNIGSNTVNWYQQFPGTAPKLLMYSQNQRPSGVPDRFAGTKSGTSASLAISGLQSEDEADYYCAAWDDSLNGWVFGGGTKLTVL
[1]
  pseudovirus neutralization IC50: 0.541 µg/mL
[2]
  pseudovirus neutralization IC50: 0.608 µg/mL
[3]
  pseudovirus neutralization IC50: 0.416 µg/mL
[4]
  pseudovirus neutralization IC50: 0.492 µg/mL
[5]
  pseudovirus neutralization IC50: 0.528 µg/mL
[6]
  pseudovirus neutralization IC50: 1.15 µg/mL
[7]
  pseudovirus neutralization IC50: 1.19 µg/mL

B9: BD56-1404 (protein)
chain 1: QLPLQESGPGLVKPSETLSLTCTVSGGSIKRSSYYWGWIRQPPGKGLEWIGIIYYSGSTYYNPSLKSRVSISVDMSKNQFSLRLSSVTAADTALYYCARQLGYCSGGTCYSPYGMDVWGQGTTVTVSS
chain 2: DIQMTQSPSSLSASVGDRVTLTCRASQSITNYLNWYQQKPGEAPKLLIYAASSLQSGVPSRFSGSGSGTDFTLTISSLQPEDFATYYCQQSDTTPWTFGQGTKVDIK
[1]
  pseudovirus neutralization IC50: > 10 µg/mL
[2]
  pseudovirus neutralization IC50: > 10 µg/mL
[3]
  pseudovirus neutralization IC50: > 10 µg/mL
[4]
  pseudovirus neutralization IC50: > 10 µg/mL
[5]
  pseudovirus neutralization IC50: > 10 µg/mL
[6]
  pseudovirus neutralization IC50: > 10 µg/mL
[7]
  pseudovirus neutralization IC50: > 10 µg/mL

B10: COV2-2389 (protein)
chain 1: EVQLVESGGGLVQPGRSLRLSCAASGFTFDDYAMHWVRQAPGKGLEWVSGISWNSGTIGYADSVKGRFIISRDNAKNSLYLQMNSLRPEDTALYYCAKDIIRQGEDGMDVWGQGTTVTVSS
chain 2: DIQMTQSPSSLSASVGDRVTITCRASQNIASYLNWYQQKPGKAPKLLIYAASSLQSGVPSRFSGSGSGTDFTLTISSLQPEEFATYYCQQSYSTPWTFGQGTKVEIK
[1]
  pseudovirus neutralization IC50: > 10 µg/mL
[2]
  pseudovirus neutralization IC50: > 10 µg/mL
[3]
  pseudovirus neutralization IC50: > 10 µg/mL
[4]
  pseudovirus neutralization IC50: > 10 µg/mL
[5]
  pseudovirus neutralization IC50: > 10 µg/mL
[6]
  pseudovirus neutralization IC50: > 10 µg/mL
[7]
  pseudovirus neutralization IC50: 0.613 µg/mL

B11: BD56-1405 (protein)
chain 1: EVQLVQSGAEVKKAGESLKISCKASGYSFISHWIDWVRQKPGKGLEWLGIIYPGDSDTRYSPSFQGQVTISADKSISTAYLQWNSLKASDTAMYYCARHDSLIHGRLDPWGQGTQVTVSS
chain 2: QSVLTQPPSASGTPGQRITISCSGSSSNIGSNTVNWYHQLTGTAPKLLIFGNNQRPSGVPDRVSASKSGTSASLAISGLRSEDEAEYYCAAWDDSLNGYVFGTGTKVTVL
[1]
  pseudovirus neutralization IC50: 0.412 µg/mL
[2]
  pseudovirus neutralization IC50: 0.52 µg/mL
[3]
  pseudovirus neutralization IC50: 0.532 µg/mL
[4]
  pseudovirus neutralization IC50: 0.788 µg/mL
[5]
  pseudovirus neutralization IC50: 0.528 µg/mL
[6]
  pseudovirus neutralization IC50: 0.81 µg/mL
[7]
  pseudovirus neutralization IC50: 0.913 µg/mL

B12: BD56-1409 (protein)
chain 1: QVHLVQSGAEVKKPGASVKVSCKASGYTLTNHYIHWVRQAPGQGLEWMGIINPSGGSTSYAQKFQGRVTMTTDTSTSTVYMELSSLRSEDTAVYYCARDSSYIPQKYYYGLDVWGQGTAVTVSS
chain 2: DIQMTQSPSSLSASVGDRVTITCRASQSISSYLNWYQQKPGKAPKLLIYAASSLQSGVPSRFSGGGSGTDFALTISTLQPEDFATYYCQQSYITPPTFGQGTKVEIK
[1]
  pseudovirus neutralization IC50: > 10 µg/mL
[2]
  pseudovirus neutralization IC50: > 10 µg/mL
[3]
  pseudovirus neutralization IC50: > 10 µg/mL
[4]
  pseudovirus neutralization IC50: > 10 µg/mL
[5]
  pseudovirus neutralization IC50: > 10 µg/mL
[6]
  pseudovirus neutralization IC50: > 10 µg/mL
[7]
  pseudovirus neutralization IC50: > 10 µg/mL

B13: BD56-1415 (protein)
chain 1: EVQLVESGGGLVQPGRSLRLSCAASGFTSDDYAMHWVRQAPGKGLEWVSGISWNSVSIGYADSVKGRFTISRDNAKNSLYLQMKSLRAEDTALYYCAKGQNLGSGSYYPAGMDVWGQGTTVTVSS
chain 2: EIVMTQSPATLSVSPGERATLSCRASQSVFSDLAWYQQKPGQAPRLLIYSASIRATGIPTRFSGTGSETEFTLTISSLQSEDFAVYYCQQYNNWPETFGQGTKVEIK
[1]
  pseudovirus neutralization IC50: > 10 µg/mL
[2]
  pseudovirus neutralization IC50: > 10 µg/mL
[3]
  pseudovirus neutralization IC50: > 10 µg/mL
[4]
  pseudovirus neutralization IC50: > 10 µg/mL
[5]
  pseudovirus neutralization IC50: > 10 µg/mL
[6]
  pseudovirus neutralization IC50: > 10 µg/mL
[7]
  pseudovirus neutralization IC50: > 10 µg/mL
